Results of single-concentration screens

Source: ChEMBL document CHEMBL3988442, “University of Dundee, Small-Polar-MMV Screening Library” (2021).

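Whole-cell growth test on Mycobacterium tuberculosis, read after 4 days in a medium based on cholesterol and the lipid DPPC; the read-out is not stated. Tested at 500 µM. Higher reads as more growth inhibition (inferred: compounds with an IC50 in retests scored well above the rest). About 18,000 compounds were tested under these conditions; 5% (about 900) showed 50% or more at least once.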

Values are the deposited “Percent Effect”, in %. How 0% and 100% were set is not recorded. Most values in the screen are low, and negative values occur. This is part of a subset picked to be rich in strong results.

| # | compound | Percent Effect |
|---|---|---|
| 1 | `CN(C)C(=O)c1cn(C)nc1C(F)(F)F` | -17.51% |
| 2 | `COC(C)CCC(=O)Nc1cnccn1` (stereo unspecified) | -7.255% |
| 3 | `CC(c1ccccn1)N1CCCSCC1` (stereo unspecified) | 10.29% |
| 4 | `O=C(CN1CCNCC1)NCCSc1ccc(Cl)cc1` | 60.84% |
| 5 | `CC(CO)(NC(=O)NCc1ccncc1)C1CC1` (stereo unspecified) | -4.853% |
| 6 | `O=C(Cc1ccc2c(c1)OCCO2)Nc1nncs1` | 0.6823% |
| 7 | `COCCCNCc1ccc2c(c1)OCCO2` | 5.203% |
| 8 | `CC(=O)NCCNC(=O)COc1c(C)cccc1C` | -3.445% |
| 9 | `COCc1noc(CN2CCNCC2)n1` | 5.611% |
| 10 | `CN(CCO)c1ccc2ccc(F)cc2n1` | 8.122% |
| 11 | `CC1=Nc2ccccc2CN1` | -5.81% |
| 12 | `CN(C)c1cccc(C(=O)Nc2cnns2)c1` | 25.88% |
| 13 | `CCC(=O)NCCCN1CCc2ccccc2C1` | 7.026% |
| 14 | `OCc1csc(N2CCC3(CC2)OCCCC3O)n1` (stereo unspecified) | -45.28% |
| 15 | `O=C(c1ccc(N2CCCCC2=O)cc1)N1CCC1` | 1.227% |
| 16 | `CN(CCS(=O)(=O)c1ccc(Cl)cc1)CC(=O)N(C)C` | 106.7% |
| 17 | `O=C(NCc1ccnc(N2CCCC2)c1)c1ccsc1` | 107.4% |
| 18 | `NCCNC(=O)c1ccc(-c2ccc(Cl)cc2)s1` | 99.42% |
| 19 | `CC(C)CC(C)S(N)(=O)=O` (stereo unspecified) | -1.991% |
| 20 | `Cc1cc2cc(C(=O)NCCOC(N)=O)oc2cc1C` | -1.072% |
| 21 | `NC(=O)CN1CCCC1CCc1ccccc1` (stereo unspecified) | 16.83% |
| 22 | `CN(C)C1(CNC(=O)c2ccncc2)CCCC1` | 20.07% |
| 23 | `CCCNC(=O)C[S+]([O-])Cc1cccc(Cl)c1` (stereo unspecified) | 25.83% |
| 24 | `Cc1cc(CN(C)C(=O)CSCCN2CCCC2)on1` | -19.81% |
| 25 | `Cn1ccc(C(=O)NCc2csc(Br)c2)cc1=O` | 39.25% |
| 26 | `Cc1nc[nH]c1CN(C)CC(C)N1CCOCC1` (stereo unspecified) | 2.868% |
| 27 | `Cc1cc(C(=O)Nc2ccnn2C(C)C)on1` | 4.59% |
| 28 | `NCC(O)c1ccc(Cl)cc1Cl` (stereo unspecified) | 39.93% |
| 29 | `CCCc1ncc(C(=O)NCC(C)S(N)(=O)=O)s1` (stereo unspecified) | 15.45% |
| 30 | `Cn1c(=O)n(C)c2cc(CNCCOCCO)ccc21` | 16.91% |
| 31 | `CN(CCCNS(N)(=O)=O)c1ccccc1F` | 15.46% |
| 32 | `Fc1ccc(Cn2ccnn2)c(Cl)c1` | 83% |
| 33 | `NCC(=O)N1CCCC(CCc2ccc(F)cc2F)C1` (stereo unspecified) | 90.91% |
| 34 | `CCNC(=O)N1CCC(NC(=O)c2cc(Cl)c[nH]2)C1` (stereo unspecified) | 0.523% |
| 35 | `COCCc1noc(C2CCN(CC(N)=O)CC2)n1` | -12.44% |
| 36 | `CN1CCCN(C(=O)NC2CCCC2)CC1` | 15.27% |
| 37 | `N#Cc1ccc(C(=O)NCC2CC2)cc1` | 54.35% |
| 38 | `COCCN(C)CCNC(=O)c1cc2ccccc2[nH]1` | 66.79% |
| 39 | `CNC(=O)NC(=O)CN(C)CCOc1cccc(F)c1` | 28.67% |
| 40 | `CCNC(=O)CNc1nccc(OC)n1` | 0.546% |
| 41 | `CCOC(=O)CSCN1C(=O)c2ccccc2C1=O` | -1.024% |
| 42 | `O=c1c2cccc(F)c2ncn1CCOCCO` | -9.714% |
| 43 | `Cn1nc(CCN)c2ccccc21` | 70.99% |
| 44 | `O=C1CCN(Cc2cc(Br)cc3c2OCC3)CCN1` | -15.88% |
| 45 | `CC(C)(C)OC(=O)N1CC(O)CC(F)(F)C1` (stereo unspecified) | 4.556% |
| 46 | `CN(Cc1ccc(Br)s1)CC(O)COCCO` (stereo unspecified) | 72.16% |
| 47 | `NC(=O)C1CCc2ccccc21` (stereo unspecified) | -30.6% |
| 48 | `CCN(CC1CCCCO1)C(=O)c1cc(Cl)c[nH]c1=O` (stereo unspecified) | -4.324% |
| 49 | `COc1ccc(CCN)c(OC)c1` | 93.73% |
| 50 | `Cc1ncccc1NC(=O)c1cccc(S(C)(=O)=O)c1` | 1.73% |
| 51 | `CCC(C)(C)NC(=O)c1ccn(-c2ccccc2F)n1` | 81.48% |
| 52 | `CC(Nc1ccc(C#N)cn1)c1ccc2c(c1)OCO2` (stereo unspecified) | 78.7% |
| 53 | `Cc1ccc2nc(CCN)oc2c1` | 62.41% |
| 54 | `CC(C)(N)CN1CCN(c2cccc(Cl)c2)CC1` | 91.3% |
| 55 | `CN1CC(C(=O)N2CCC(c3ncc[nH]3)CC2)NC1=O` (stereo unspecified) | 9.058% |
| 56 | `COc1ccccc1NC(=O)CNCC(C)C` | 3.987% |
| 57 | `Cc1ncc(C(=O)N[C@H]2CC[C@H](O)CC2)c(O)c1Br` | -8.397% |
| 58 | `CCC1(CO)CCCN(CCn2cc(Cl)cn2)C1` (stereo unspecified) | 83.03% |
| 59 | `O=C(NCCN1CCNCC1)c1ccco1` | -16.24% |
| 60 | `Cc1ccc(C(N)=O)c(O)c1` | 4.677% |
| 61 | `CCCS(=O)(=O)N(C)Cc1cccc(OCC)n1` | 46.82% |
| 62 | `CN1CCN(C(=O)C2CCCO2)c2ccccc2C1` (stereo unspecified) | -2.177% |
| 63 | `Cc1cc(N2CCCC(N)C2)nc(C)n1` (stereo unspecified) | 5.687% |
| 64 | `CN(CCCNC(=O)C1CNCCO1)c1ccccc1` (stereo unspecified) | 7.892% |
| 65 | `Cn1cc(C(=O)Nc2ccc3[nH]nnc3c2)ccc1=O` | 7.263% |
| 66 | `O=C(c1ccc(F)cc1)N1C[C@@H]2CCN[C@@H]2C1` | 2.265% |
| 67 | `Cc1ccoc1C(=O)N1CCCN(CC(N)=O)CC1` | -0.1776% |
| 68 | `NS(=O)(=O)c1cccc(S(=O)(=O)c2ccc(Cl)cc2)c1` | 71.81% |
| 69 | `O=C(NCc1ccco1)Nc1nc2c(s1)COCC2` | 51.21% |
| 70 | `CC(C)(C)CC(=O)NCCS(=O)(=O)N1CCSCC1` | 1.826% |
| 71 | `N#Cc1cnc2ccsc2c1` | -1.468% |
| 72 | `Cn1cc(CCNC(=O)NCC2(C)CCCS2)cn1` (stereo unspecified) | 10.27% |
| 73 | `COc1cc(CN)cc(Cl)c1OCC(N)=O` | -4.914% |
| 74 | `Cc1c(Cl)cccc1N(S(C)(=O)=O)S(C)(=O)=O` | 19.31% |
| 75 | `Cc1nn(CCNC(=O)C(C)NS(C)(=O)=O)c(C)c1C` (stereo unspecified) | 1.308% |
| 76 | `CCC1CN(C2=NS(=O)(=O)c3ccccc32)CCO1` (stereo unspecified) | 8.337% |
| 77 | `CCCn1nnc(NC(=O)c2cccnc2)n1` | 13.71% |
| 78 | `COC(=O)c1cnn(-c2ccccc2)n1` | -11.38% |
| 79 | `COCCCOc1ccc2c(c1)OCCO2` | 79.72% |
| 80 | `Cc1cccc(CS(=O)(=O)NCC2(CO)CC2)c1` | -11.69% |
| 81 | `Cc1cccc(NC(=O)CCc2ccco2)n1` | -19.1% |
| 82 | `CC(C)(C)C(=O)NCC(=O)Nc1ccccn1` | -8.306% |
| 83 | `O=C(NCCC(F)(F)F)NC1CCC2(CC1)OCCO2` | 10.92% |
| 84 | `CS(=O)(=O)NCc1nc(CCc2ccccc2)no1` | 25.16% |
| 85 | `Cc1csc(CCCNC(=O)Cn2nc(C)cc2N)n1` | 10.83% |
| 86 | `O=C1CN(c2ccnc3cc(Br)ccc23)CCN1` | 31.56% |
| 87 | `O=C(NCC(O)c1c(F)cccc1F)c1cc(Br)c[nH]1` (stereo unspecified) | -17.34% |

Once more, the final 7:

| compound | Percent Effect |
|---|---|
| `Cc1cccc(NC(=O)CCc2ccco2)n1` | -19.1% |
| `CC(C)(C)C(=O)NCC(=O)Nc1ccccn1` | -8.306% |
| `O=C(NCCC(F)(F)F)NC1CCC2(CC1)OCCO2` | 10.92% |
| `CS(=O)(=O)NCc1nc(CCc2ccccc2)no1` | 25.16% |
| `Cc1csc(CCCNC(=O)Cn2nc(C)cc2N)n1` | 10.83% |
| `O=C1CN(c2ccnc3cc(Br)ccc23)CCN1` | 31.56% |
| `O=C(NCC(O)c1c(F)cccc1F)c1cc(Br)c[nH]1` (stereo unspecified) | -17.34% |